Reference: patent US10869476B2 (priority 2015, dated 2020)

Experiment: Field trials of wheat, yield
Conditions: wheat field trials France and Germany 2016, UTC 80

Question: For CON(C(=O)c1cn(C)nc1C(F)F)C(C)Cc1c(Cl)cc(Cl)cc1Cl (centres unmarked) [Pydiflumetofen, 3-(Difluoromethyl)-N-methoxy-1-methyl-N-[1-(2,4,6-trichlorophenyl)-2-propanyl]-1H-pyrazole-4-carboxamide], which Yield in dt/ha (45 g a.i./ha) is on record?
Answer: Its Yield in dt/ha is 112 dt/ha.

Question: What about the Yield in dt/ha (60 g a.i./ha) of the same molecule?
Answer: The Yield in dt/ha was 111 dt/ha.
